The assay has as its target Human PAI1 (human) (UniProt P05121). The experiment in a line: SPR; Biacore X100; human PAI1 amine-coupled on flow cell 2 of a CM5 chip (300-500 RU); rhPRG4 injected at at least 5 concentrations, 2.74-2000 µg/mL, 30 µL/min, contact time 1 min, 25 °C; PBS with 0.01% (v/v) Tween 20; regeneration with 1 M NaCl.

The values that follow come from article PMC9232611.

“Full length recombinant human lubricin protein (rhPRG4) (from UniProt Q92954 25-1404) (natural protein; other documents disagree on this pair)”: the Kd was 2700 nM.

As usually defined, the Kd is the concentration at which binding is half-saturated. Higher therefore signals a looser complex.
